Pooled drug test results. Numbers come from NIAID ChemDB, via PubChem.

All rows: tests on isolated targets; protein: CCR5

ICn is the concentration giving n% inhibition. Inhibition is in % at the dose shown (toxicity tests: loss of growth or viability). Conditions beyond the fields shown may differ between rows. An empty or dashed field is not shown.

compound	method	dose	read-out	value
CN1CC(C(=O)N(CCCN2CCC3(C=Cc4ccccc43)CC2)c2ccccc2)CC1=O	radiometric	1 µM	inhibition	24%
CN1CC(C(=O)N(CCCN2CCCCC2)c2ccccc2)CC1=O	radiometric	10 µM	inhibition	16%
CCCCOCCOc1ccc(-c2ccc3c(c2)C=C(C(=O)Nc2ccc(S(=O)Cc4nccn4C(C)C)cc2)CCN3CC(C)C)cc1	radiometric	-	IC50	0.0084 µM
CS(=O)(=O)N(CCCN1CCC(Cc2ccccc2)CC1)c1ccccc1	radiometric	10 µM	inhibition	43%
CS(=O)(=O)c1ccc(NC(=O)N(CCCN2CCC(Cc3ccc(F)cc3)CC2)c2ccccc2)cc1	radiometric	-	IC50	0.026 µM
O=C1CC(C(=O)N(CCCN2CCC(Cc3ccccc3)CC2)c2ccccc2)CN1Cc1ccccc1Cl	radiometric	1 µM	inhibition	91%
c1ccc2c(NCc3ccc(CN4CCCNCCNCCCNCC4)cc3)cccc2c1	fluorescence	10 µM	inhibition	86%
O=C(c1ccccc1)N(CCCN1CCC(Cc2ccccc2)CC1)c1ccccc1	radiometric	-	IC50	2.3 µM
c1cnc2c(NCc3ccc(CN4CCCNCCNCCCNCC4)cc3)cccc2c1	fluorescence	10 µM	inhibition	55%
CN1CC(C(=O)N(CCCN2CCC(Cc3ccccc3)CC2)c2ccccc2)CC1=O	radiometric	1 µM	inhibition	57%
O=C(Nc1ccc(C(F)(F)F)cc1)N(CCCN1CCC(Cc2ccc(F)cc2)CC1)c1ccccc1	radiometric	-	IC50	0.014 µM
CCCCOCCOc1ccc(-c2ccc3c(c2)C=C(C(=O)Nc2ccc(S(=O)Cc4nccn4CCCC)cc2)CCN3CC(C)C)cc1	radiometric	-	IC50	0.014 µM
CN1CC(C(=O)N(CCCCN2CCC(C(=O)c3ccc(F)cc3)CC2)c2ccccc2)CC1=O	radiometric	1 µM	inhibition	22%
CCCCOCCOc1ccc(-c2ccc3c(c2)C=C(C(=O)Nc2ccc(S(=O)Cc4cccnn4)cc2)CCN3CC(C)C)cc1	radiometric	-	IC50	0.022 µM
O=C1CC(C(=O)N(CCCN2CCC(Cc3ccccc3)CC2)c2ccccc2)CN1c1ccccc1	radiometric	1 µM	inhibition	76%

2 of the rows above, restated:

CN1CC(C(=O)N(CCCN2CCCCC2)c2ccccc2)CC1=O ; method: radiometric ; dose: 10 µM ; read-out: inhibition ; value: 16%
CN1CC(C(=O)N(CCCN2CCC(Cc3ccccc3)CC2)c2ccccc2)CC1=O ; method: radiometric ; dose: 1 µM ; read-out: inhibition ; value: 57%